## Kdimer by position in the HIV-1 leader RNA

Sequence of the HIV-1 NL4-3 5' RNA, positions 1 to 437, as numbered in the source:
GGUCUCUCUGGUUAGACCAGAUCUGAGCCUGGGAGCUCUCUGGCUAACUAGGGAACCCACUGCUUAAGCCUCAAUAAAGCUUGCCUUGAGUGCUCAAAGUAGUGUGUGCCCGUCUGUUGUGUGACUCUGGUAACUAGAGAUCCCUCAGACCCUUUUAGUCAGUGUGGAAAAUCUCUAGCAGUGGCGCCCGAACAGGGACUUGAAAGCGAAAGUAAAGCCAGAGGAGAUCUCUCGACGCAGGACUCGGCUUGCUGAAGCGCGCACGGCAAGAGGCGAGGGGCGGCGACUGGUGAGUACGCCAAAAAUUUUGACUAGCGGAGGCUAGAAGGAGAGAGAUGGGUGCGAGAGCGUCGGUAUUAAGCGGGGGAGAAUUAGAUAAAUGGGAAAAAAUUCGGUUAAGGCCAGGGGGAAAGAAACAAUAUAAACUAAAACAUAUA

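Randomly mutated transcripts starting with one, two or three G (1G, 2G, 3G), capped or uncapped, were folded for 30 min at 37 °C. High salt was 300 mM KCl and 5 mM MgCl2, low salt 40 mM KCl and 0.1 mM MgCl2; monomer and dimer were parted on a native gel. Mutation frequencies in the two bands give Kdimer.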

Values are log2 Kdimer, the median over the changes at each position: higher means that changes there hinder dimer formation, below 0 that they favour it. One numbering serves 1G, 2G and 3G. A position is written with its base where known.

position,domain,1G uncapped high-salt,2G capped high-salt,3G uncapped high-salt,2G uncapped high-salt
A26,TAR,0.11,-0.05,-0.28,0.02
G27,TAR,-0.42,-0.43,-0.90,-0.51
U39,TAR,0.12,0.08,0.07,0.02
U45,TAR,0.03,-0.04,0.08,-0.10
A50,TAR,-0.01,-0.07,0.03,0.09
G51,TAR,-0.01,0.00,-0.02,0.07
U64,PolyA,0.34,0.24,0.25,0.23
C70,PolyA,0.18,0.24,-0.13,0.14
U87,PolyA,0.18,0.06,0.09,0.17
U91,PolyA,0.14,0.02,-0.05,-0.06
U94,PolyA,0.10,-0.09,0.06,0.09
C95,PolyA,-0.02,0.13,-0.07,-0.03
G104,PolyA,0.25,-0.15,0.31,0.01
G112,U5,0.04,0.01,0.03,0.00
A140,PBS,0.27,0.14,0.20,0.20
A149,PBS,0.33,0.96,-0.01,0.75
U156,PBS,0.04,0.02,0.15,0.04
A169,PBS,0.01,0.12,0.02,0.03
U172,PBS,0.28,0.05,0.24,0.17
G202,PBS,-0.18,-0.24,-0.13,-0.19
A203,PBS,0.45,0.53,0.34,0.59
A205,PBS,0.08,0.39,0.05,0.17
G221,antiPAS,0.05,-0.13,0.13,-0.15
U250,SL1,2.76,2.62,2.75,2.77
A255,SL1,-0.26,-0.06,-0.43,-0.13
C274,SL1,0.37,0.10,0.32,0.31
G283,SL2,0.09,-0.08,0.00,0.03
A296,SL2,0.83,0.62,0.58,0.69
G321,SL3,0.55,0.63,0.43,0.68
G342,AUG,0.28,0.01,0.30,0.10
A379,none,-0.10,-0.06,0.06,0.02
U397,none,0.02,0.04,-0.04,-0.02
A398,none,0.04,0.07,0.06,-0.02
G401,none,0.12,-0.22,0.01,0.08
G407,none,0.00,-0.03,0.03,0.07
A414,none,-0.06,0.00,0.08,0.01
C417,none,0.08,-0.15,0.11,0.00
U420,none,0.00,0.02,0.01,0.10
A433,none,0.12,0.15,0.12,0.00
U436,none,-0.01,0.00,-0.05,-0.10
A437,none,0.08,0.05,0.14,0.06
444,none,0.15,0.09,0.15,0.13
463,none,0.03,0.17,0.04,0.19
494,none,0.04,0.03,0.03,0.08

Bases beyond 437 are not listed in the source.

The measurements come from Ye et al. 2022 (doi:10.1038/s41594-022-00746-2).